Taken from: PubChem BioAssay AID504761 (Drosophila RNAi Screening Center, 2011)

- Assay: 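Genome-wide fly cell screen for genes dengue virus requires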 (primary screen)
- Cell system: D.Mel-2 cells from Drosophila
- Reagent: long dsRNA against Drosophila genes
- Treatment: infection with dengue virus type 2; dose and infection time not stated
- Read-out: 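Per well on two replicate plates, imaging gave the percent of cells positive for viral envelope protein, ranked by infection, and a nuclear count of cells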
- Direction: infection score: higher = more virus-infected cells; cell count: higher = more cells in the well
- Call rule: 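Very low infection ranking in both replicate wells (chance probability at most 0.065), then a retest showing infection dropped 1.5-fold or more at p below 0.05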
- Meaning of the calls: active = confirmed: knock-down lowers infection; inactive = not picked or not confirmed
The deposit covers about 22,000 reagents; below is an unselected part of those with a known target gene and a result. Of all reagents, 116 (0.52%) were called active. 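Calls depend on retest data that are not deposited; infection was ranked per plate without normalising between plates; the unit of the infection score is not given.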 Raw values vary from plate to plate and are shown uncorrected. Names joined by + are all predicted targets of the reagent. Reagent sequences are not shown. Not stated in the record: the amount of reagent, the time to read-out.

gene | amplicon | infection score, replicate 1 | infection score, replicate 2 | cell count, replicate 1 | cell count, replicate 2 | outcome
CG31457 | DRSC22935 | 2.8 | 2.44 | 6136 | 7007 | inactive
CG31457 | DRSC29229 | 13.9 | – | 3989 | 254 | inactive
CG8960 | DRSC08612 | 14.6 | 8.91 | 6483 | 5699 | inactive
CG8960 | DRSC27132 | 39.5 | 16.3 | 5184 | 6462 | inactive
CG14995 | DRSC22991 | 1.06 | 22.7 | 5944 | 4653 | inactive
CG33181 | DRSC17971 | 2.24 | 3.71 | 6163 | 6437 | inactive
CG33181 | DRSC22376 | 2.97 | 3.88 | 6370 | 6594 | inactive
CG33181 | DRSC29457 | 20.1 | 11.1 | 5813 | 3504 | inactive
CG12744 | DRSC06164 | 3.14 | 6.37 | 5929 | 6371 | inactive
CG32551 | DRSC19259 | 0.19 | 0.1 | 6294 | 7012 | inactive
RpL21 | DRSC03704 | 4.33 | 4.08 | 1225 | 1496 | inactive
Nrk | DRSC07480 | 19.4 | 12.1 | 5424 | 7062 | inactive
CG15536 | DRSC15072 | 1.74 | 7.34 | 6142 | 6651 | inactive
CG15536 | DRSC22844 | 1.92 | 0.9 | 6458 | 6924 | inactive
CG15536 | DRSC27663 | 0.2 | 5.91 | 490 | 2012 | inactive
mRpL13 | DRSC02076 | – | 10.5 | 660 | 6337 | inactive
mRpL13 | DRSC30067 | 4.48 | 3.28 | 6357 | 5675 | inactive
CG15142 | DRSC02443 | 1.46 | 5.72 | 6625 | 6539 | inactive
CG31975 + ovm | DRSC00323 | 2.62 | 4.98 | 6413 | 6812 | inactive
CG31681 | DRSC00107 | 9.63 | 8.23 | 5806 | 6003 | inactive
CG31681 | DRSC25893 | 5.43 | 3.38 | 6505 | 5774 | inactive
CG31534 (retired record) | DRSC12141 | 6.49 | 14.8 | 6668 | 3981 | inactive
CG31534 (retired record) | DRSC12289 | 7.86 | 4.52 | 5041 | 6610 | inactive
CG31534 (retired record) | DRSC27803 | 6.02 | 7.97 | 6459 | 6767 | inactive
PAPLA1 | DRSC03095 | 5.37 | 3.75 | 6500 | 6346 | inactive
PAPLA1 | DRSC03096 | 2.37 | 4.77 | 5811 | 6095 | inactive
CG4594 | DRSC02762 | 9.96 | 7.16 | 6194 | 6383 | inactive
Elk | DRSC07608 | 11.2 | 9.9 | 6409 | 6281 | inactive

9 successive reagents from above, quoted:
gene | amplicon | infection score, replicate 1 | infection score, replicate 2 | cell count, replicate 1 | cell count, replicate 2 | outcome
CG14995 | DRSC22991 | 1.06 | 22.7 | 5944 | 4653 | inactive
CG33181 | DRSC17971 | 2.24 | 3.71 | 6163 | 6437 | inactive
CG33181 | DRSC22376 | 2.97 | 3.88 | 6370 | 6594 | inactive
CG33181 | DRSC29457 | 20.1 | 11.1 | 5813 | 3504 | inactive
CG12744 | DRSC06164 | 3.14 | 6.37 | 5929 | 6371 | inactive
CG32551 | DRSC19259 | 0.19 | 0.1 | 6294 | 7012 | inactive
RpL21 | DRSC03704 | 4.33 | 4.08 | 1225 | 1496 | inactive
Nrk | DRSC07480 | 19.4 | 12.1 | 5424 | 7062 | inactive
CG15536 | DRSC15072 | 1.74 | 7.34 | 6142 | 6651 | inactive

The results go on:
gene | amplicon | infection score, replicate 1 | infection score, replicate 2 | cell count, replicate 1 | cell count, replicate 2 | outcome
Trm7-32 | DRSC15741 | 6.42 | 4.26 | 6633 | 6849 | inactive
CG7985 | DRSC14128 | 26.3 | 20.6 | 5860 | 5776 | inactive
Cad88C | DRSC15486 | 1.34 | 19.9 | 6638 | 4684 | inactive
Cad88C | DRSC26126 | 7.63 | 7.62 | 3630 | 5747 | inactive
CG15278 | DRSC02481 | 2.36 | 4.83 | 5793 | 6398 | inactive
CG32835 (retired record) | DRSC22693 | 7.34 | 7.37 | 6998 | 6374 | inactive
CG32835 (retired record) | DRSC26198 | 18.7 | 8.61 | 5780 | 5612 | inactive
ng3 | DRSC18804 | 1.84 | 15.1 | 1194 | 6008 | inactive
ng3 | DRSC25323 | 5.65 | 0.95 | 5572 | 5788 | inactive
mRpS17 | DRSC04463 | 3.74 | 4.8 | 5165 | 5540 | inactive
poe | DRSC03593 | 2.64 | 27.4 | 6179 | 5587 | inactive
poe | DRSC28537 | 29.4 | 14.9 | 3698 | 2235 | inactive
CG11980 | DRSC14456 | 19.9 | 11.7 | 5248 | 4974 | inactive
RpS14b | DRSC18711 | 7.29 | 8.16 | 1399 | 1238 | inactive
Drep4 | DRSC03408 | 6.3 | 5.66 | 6527 | 6591 | inactive
CG10395 | DRSC04840 | 20.9 | 39.1 | 6140 | 4652 | inactive
CG10395 | DRSC26811 | 9.43 | 7.38 | 6901 | 6547 | inactive
Pld | DRSC04854 | 34.9 | 12.6 | 5268 | 6368 | inactive
Pld | DRSC24641 | 3.76 | 3.37 | 6109 | 6386 | inactive
alpha-PheRS | DRSC18224 | 8.1 | 3.22 | 5688 | 5805 | inactive
alpha-PheRS | DRSC24124 | 4.28 | 13.7 | 5533 | 5006 | inactive
Lcp65Af | DRSC11213 | 3.55 | 3.39 | 6003 | 5634 | inactive
Lcp65Af | DRSC25142 | 12.8 | 3.74 | 6065 | 6172 | inactive
Atat | DRSC10392 | 14.8 | 15.3 | 5589 | 4949 | inactive
CG4409 | DRSC06869 | 7.86 | 19.9 | 6731 | 6190 | inactive
CG4409 | DRSC28040 | 18.5 | 5.64 | 5461 | 5814 | inactive
CG6770 | DRSC02992 | 3.5 | 3.25 | 6596 | 6594 | inactive
CG6770 | DRSC26414 | 1.13 | 4.41 | 6014 | 6056 | inactive
lawc (retired record) | DRSC23208 | 2.43 | 13 | 6490 | 6288 | inactive
CG12914 | DRSC06229 | 25.2 | 6.96 | 5304 | 5687 | inactive
